Target: HLA-DR1 (HLA-DRA*0101, HLA-DRB1*0101) (human)
Experiment: ELISA

For SARS-CoV-2 Membrane peptide M176-190, which IC50 is on record?
Its IC50 is 7.9 nM.

From article PMC10840515
